How the values were obtained:
[1] = target: T1, biotinylated Tom70 ([…]) with N-terminal AVI tag (human, biotin (AVI tag, by co-expressed BirA)); assay: SPR; conditions: both partners purified
T1 construct: also called biotin-Tom70; immobilized Tom70

SEC = target: the molecule itself; assay: SEC
[2] = target: T2, hTom70 ([…]) lacking the transmembrane domain (human); assay: fluorescence polarisation; conditions: both partners purified
T2 construct: also called Translocase of Outer Membrane 70

Row | Binder | Kd [1] [nM] | fold slower association rate than the Orf9b peptide [1] [fold] | fold slower dissociation rate than the Orf9b peptide [1] [fold] | stoichiometry N (SEC) | binding result [2]
1 | WT refolded Orf9b (apo-Orf9b homodimer) (natural protein, also called apo-homodimer; lipid-free Orf9b) not shown | 190 ± 1 | ~3 | ~10 |  | 
2 | Orf9b Delta variant (T60A), refolded (natural protein, also called Orf9b T60A) not shown |  |  |  | 2 | binds
